Laboratory results reported in paper PMC11826303.
The exact form of at least one protein or probe is not confirmed. Where cells or extracts were used, other partners may take part.

Chains of the proteins cited; added tags and fusions are not shown.
UniProt Q04206, whole entry: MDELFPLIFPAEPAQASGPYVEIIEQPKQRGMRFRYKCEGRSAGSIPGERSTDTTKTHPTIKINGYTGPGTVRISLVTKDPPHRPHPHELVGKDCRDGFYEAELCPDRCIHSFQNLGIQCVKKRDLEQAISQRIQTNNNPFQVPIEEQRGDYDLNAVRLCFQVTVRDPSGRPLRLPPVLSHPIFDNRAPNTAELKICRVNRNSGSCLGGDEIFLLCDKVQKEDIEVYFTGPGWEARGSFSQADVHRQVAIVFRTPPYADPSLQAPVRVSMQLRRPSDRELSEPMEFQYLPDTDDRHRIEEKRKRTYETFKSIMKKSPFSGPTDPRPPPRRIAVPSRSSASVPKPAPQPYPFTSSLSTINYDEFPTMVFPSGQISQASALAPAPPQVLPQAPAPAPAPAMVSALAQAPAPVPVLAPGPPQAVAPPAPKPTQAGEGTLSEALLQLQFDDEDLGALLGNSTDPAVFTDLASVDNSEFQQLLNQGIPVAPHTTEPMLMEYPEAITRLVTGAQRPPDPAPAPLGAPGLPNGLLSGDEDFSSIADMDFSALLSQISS

Target: NF-kB p65 (RelA), endogenous in nuclear extract of TNF-alpha-stimulated RPTEC (UniProt Q04206)
Experiment: EMSA supershift
Conditions: TNF-alpha 1000 U/mL 30 min nuclear extract, p65 antibody; EMSA with 32P-labelled dsDNA and RPTEC nuclear extract (TNF-alpha 1000 U/mL, 30 min, 37 C stimulation); binding buffer; protein in an extract; label: 32P

## AAGAATAGGGATTTCCCCAAATA (double strand) [BK1]
  binding result: binds
